Results of unrelated studies side by side (data: NIAID ChemDB).

Shared fields: whole-cell or culture tests

Rows are shuffled and stem from different studies. Blank or dashed fields: not listed here. Two numbers with a dash give a range or band. Fold resistance: result on the changed form divided by that on wild type. Inhibition is in % at the dose shown (toxicity tests: loss of growth or viability). ECn: concentration that inhibits the pathogen or its effect by n%.

compound | dose | strain or isolate | cells | mutations | measure | species | read by | result
CNC(=O)c1c(-c2ccc(F)cc2)oc2cc(N(CCO)S(C)(=O)=O)c(C3CC3)cc12 |  | 6a | Huh7 |  | EC50 | Hepatitis C virus | luciferase | 0.0162 µM
COc1ccc2c(O[C@@H]3C[C@H]4C(=O)N[C@]5(C(=O)O)C[C@H]5/C=C\CCCCC[C@H](NC(=O)OC5CCCC5)C(=O)N4C3)cc(-c3csc(NC(C)C)n3)nc2c1 |  | Con1 | 1C | D168V | fold resistance | Hepatitis C virus | luciferase | >410
CO[C@@H]1[C@H](O)[C@@H](COP(=O)(O)OP(=O)(O)OP(=O)(O)O)O[C@H]1n1ccc(N)nc1=O | 30 µg/mL |  | HeLa-5B |  | inhibition | Hepatitis C virus | MTT | 48.52%
CCC(CCC(C)C1CCC2C3C[C@@H](O)[C@@]4(O)C[C@@H](O)CCC4(C)C3CCC12C)C(C)C | 100 µg/mL |  | HepG2 2.2.15 |  | inhibition | Hepatitis B virus | antigen | 35.5%
COc1cc2ccc(=O)oc2cc1OC |  |  | HepG2.2.15 |  | EC50 | Hepatitis B virus | PCR | 206 µM
CC(C)OC(=O)CCC1COP(=O)(CO[C@H](C)Cn2cnc3c(NC(=O)c4ccccc4)ncnc32)OC1 | 1 µM | Genotype D | HepaRG |  | inhibition | Hepatitis B virus | PCR | 50–80%
COc1ccc([C@H]2OC[C@H]3[C@@H]2CO[C@@H]3c2ccc(OC)c(O)c2)cc1O |  |  | HepG2.2.15 |  | EC50 | Hepatitis B virus | ELISA / antigen | 837 µM
COC(=O)CCC1COP(=O)(CO[C@H](C)Cn2cnc3c(N)ncnc32)OC1 | 1 µM | Genotype D | PHH |  | inhibition | Hepatitis B virus | PCR | >80%
CCC(=O)c1ccc(O)c(OC)c1 |  |  | HepG2.2.15 |  | EC50 | Hepatitis B virus | PCR | 482 µM
CC1N=C(c2ccc(OCCOC3CC(C(=O)O)C3)cc2)Nc2c(Cl)cccc21 |  |  | HepDES19 |  | EC50 | Hepatitis A virus | ELISA / antigen | 1.03 µM
COc1cc(C2Oc3cc(O)cc(O)c3C(=O)C2OC2O[C@H](CO)[C@@H](O)[C@H](O)[C@H]2O)ccc1O |  |  | HepG2.2.15 |  | EC50 | Hepatitis B virus | PCR | 16.42 µM
C[C@@]1(O)[C@H](O)[C@@H](CO)O[C@H]1n1cnc2c(N)ncnc21 |  | 6a | Huh7 |  | EC50 | Hepatitis C virus | luciferase | 0.2516 µM
CC(C)OC(=O)[C@H](C)N[P@](=O)(OC[C@H]1O[C@@](C#N)(c2ccc3c(N)ncnn23)[C@](C)(O)[C@@H]1OC(=O)C(C)C)Oc1ccccc1 |  | 1b Con1 | 1C | Y93H | fold resistance | Hepatitis C virus | luciferase | 0.33
COc1ccc2c(O[C@@H]3C[C@H]4C(=O)N[C@]5(C(=O)NS(=O)(=O)C6CC6)C[C@H]5/C=C\CCCCN(C)C(=O)[C@@H]4C3)cc(-c3nc(C(C)C)cs3)nc2c1C |  | HK6a | Huh7.5 |  | EC50 | Hepatitis C virus | antigen | 0.096 µM
CCOC(=O)CC1COP(=O)(CO[C@H](C)Cn2cnc3c(N(C(C)=O)C(C)=O)ncnc32)OC1 | 1 µM | Genotype D | PHH |  | inhibition | Hepatitis B virus | PCR | 50–80%
CC(=O)Nc1ccc(-c2ccc(Cl)cc2)c(COc2ccc(-c3nc4cc(C(=O)O)ccc4n3C3CCCCC3)cc2)c1 |  |  | Con-1 |  | EC50 | Hepatitis C virus | luciferase | 1.624 µM
CCOC(=O)CC1COP(=O)(CO[C@H](C)Cn2cnc3c(NC(=O)CC)ncnc32)OC1 | 1 µM | Genotype D | PHH |  | inhibition | Hepatitis B virus | PCR | ≤30%
COC(C)c1ccc(O)c(O)c1 |  |  | HepG2.2.15 |  | EC50 | Hepatitis B virus | PCR | 199 µM
CCC[C@H](NC(=O)[C@@H]1[C@H]2CCC[C@H]2CN1C(=O)[C@@H](NC(=O)[C@@H](NC(=O)c1cnccn1)C1CCCCC1)C(C)(C)C)C(=O)C(=O)NC1CC1 |  | 1b D168V |  |  | EC50 | Hepatitis C virus | luciferase | 0.137 µM
Clc1ccc(Cn2c(CN3CCCC3)nc3ccccc32)cc1 | 10 µM | 1b Con1 | Huh7 |  | inhibition | Hepatitis C virus | luciferase / replicon | 67.03%
CC(C)OC(=O)CC1COP(=O)(CO[C@H](C)Cn2cnc3c(N)ncnc32)OC1 | 1 µM | Genotype D | HepaRG |  | inhibition | Hepatitis B virus | PCR | ≤30%
O=C1C[C@@H](c2ccc(O)cc2)Oc2cc(OC3O[C@H](CO)[C@@H](O)[C@H](O)[C@H]3O)cc(O)c21 |  |  | HepG2.2.15 |  | EC50 | Hepatitis B virus | PCR | 41.59 µM
COC(=O)CC1COP(=O)(CO[C@H](C)Cn2cnc3c(N)ncnc32)OC1 | 1 µM | Genotype D | PHH |  | inhibition | Hepatitis B virus | PCR | ≤30%
CC(C)(C)OC(=O)N[C@@H]1CCCCC/C=C\[C@@H]2C[C@@]2(C(=O)NS(=O)(=O)C2CC2)NC(=O)[C@@H]2C[C@@H](OC(=O)N3Cc4cccc(F)c4C3)CN2C1=O |  | JFH-1 | Huh7.5 | L1062M R1181K | EC50 | Hepatitis C virus | antigen | 4.307 µM
CC(C)(CO)C(=O)SCCOP(=O)(NCc1ccccc1)OC[C@H]1O[C@@H](n2cnc3c(=O)[nH]c(N)nc32)[C@](C)(O)[C@@H]1O |  | GT1a | Replicon cells | L31V | fold resistance | Hepatitis C virus | replicon | 1.33
CC[C@H](C)C(=O)O[C@H]1CC=CC2C=C[C@H](C)[C@H](CC[C@@H]3C[C@@H](O)CC(=O)O3)[C@H]21 |  |  | Huh 9-13 |  | EC90 | Hepatitis C virus | luciferase / replicon | 5.8 µM